Compound potency records, mixed from different reports. Data source: NIAID ChemDB in PubChem.

Common to all: whole-cell or culture tests; organism: Influenza B virus; read by: plaque count; read-out: EC50

ECn: concentration that inhibits the pathogen or its effect by n%. Lines come from different laboratories, so protocols vary. Blank or dashed fields: not listed here. Two numbers with a dash give a range or band.

compound	cells	strain or isolate	result
C[C@H](CO)[C@@H](OC(=O)NCCSc1ncccn1)[C@@H]1OC(C(=O)O)=C[C@H](N=C(N)N)[C@H]1NC(=O)O	MDCK	Victoria	0.027 µg/mL
Nc1nc(Cl)cc(NCC2(O)CCC2)n1	MDCK	B/GIFU/2/73	>130 µM
C[C@H](CO)[C@@H](OC(N)=O)[C@@H]1OC(C(=O)O)=C[C@H](N=C(N)N)[C@H]1NC(=O)O	MDCK	Victoria	0.002 µg/mL
C/C=C\[C@@H]1C[C@H](C(=O)O)N[C@H]1[C@@H](NC(C)=O)[C@](C)(CCC)OC	MDCK	Memphis/20/96	<0.01 µg/mL
CCCN(CCCc1ccccc1)C(=O)[C@@H]1OC(C(=O)O)=C[C@H](N)[C@H]1NC(C)=O			>1 µg/mL
C[C@H](CO)[C@@H](OC(=O)N1CCNCC1)[C@@H]1OC(C(=O)O)=C[C@H](N=C(N)N)[C@H]1NC(=O)O	MDCK	Victoria	>0.1 µg/mL
CCCN(CCc1ccc(Cl)cc1Cl)C(=O)[C@@H]1OC(C(=O)O)=C[C@H](N)[C@H]1NC(C)=O			3.2 µg/mL
Nc1nc2c(ncn2[C@@H]2O[C@H](CO)[C@@H](O)[C@H]2F)c(=O)[nH]1	MDCK	B/LEE/40	11.5 µM
N#Cc1cnc(N)nc1NCC1(CO)CC(CCc2ccccc2)C1	MDCK	B/GIFU/2/73	2.1–2.4 µM
CC(C)Oc1ccccc1NC(=O)Nc1ccc2cnccc2n1			>32 µg/mL
CC(=O)N[C@H]1[C@H]([C@H](O)[C@H](O)CO)OC(C(=O)O)=C[C@@H]1N=C(N)N	MDCK	B/MASS/3/66	0.09 µM
CCCN(CCc1cccc(OC)c1)C(=O)[C@@H]1OC(C(=O)O)=C[C@H](N)[C@H]1NC(C)=O			1.2 µg/mL
N#CNc1nncs1	MDCK	B/GREAT LAKES/1739/54	1.06 µg/mL
CC[C@@H]1C2CCCC(C2N)[C@@H]1CC	MDCK		>100 µM
CCCCCCCNC(=O)O[C@@H]([C@@H]1OC(C(=O)O)=C[C@H](N)[C@H]1NC(=O)O)[C@H](C)CO	MDCK	Victoria	0.27 µg/mL
CCCN(CCc1cccc(O)c1)C(=O)[C@@H]1OC(C(=O)O)=C[C@H](N)[C@H]1NC(C)=O			2.9 µg/mL
CCCN(CCC)C(=O)O[C@@H]([C@@H]1OC(C(=O)O)=C[C@H](N)[C@H]1NC(=O)O)[C@H](C)CO	MDCK	Victoria	0.52 µg/mL
CCCN(CCc1cccc(-c2ccccc2)c1)C(=O)[C@@H]1OC(C(=O)O)=C[C@H](N)[C@H]1NC(C)=O			0.3 µg/mL
Nc1nc(Cl)cc(NCC2(CO)CC(c3ccccc3)C2)n1	MDCK	B/GIFU/2/73	2.8–3.8 µM
CC1=C(C)C2(C)CC(C)(C)CC1C2N	MDCK		36 µM
CCCN(CCc1ccc(Cc2ccccc2)cc1)C(=O)[C@@H]1OC(C(=O)O)=C[C@H](N)[C@H]1NC(C)=O			3.1 µg/mL
CC1=C(C)C2(C)CCC(C)(C)C1C2N	MDCK		>25 µM
CCOC(=O)c1cc(C#N)c2[nH]c3ccccc3n2c1=O	MDCK	B/Singapore	200 µg/mL
C[C@H](CO)[C@@H](OC(=O)NCCCCCCN)[C@@H]1OC(C(=O)O)=C[C@H](N=C(N)N)[C@H]1NC(=O)O	MDCK	Victoria	0.009 µg/mL
Nc1nc(Cl)cc(NCC2(CO)CCC2)n1	MDCK	B/GIFU/2/73	45–58 µM
N#Cc1cc(C#N)c2[nH]c3ccccc3n2c1=O	MDCK	B/Singapore	80 µg/mL

Repeating the first 2 entries:

| compound | cells | strain or isolate | result |
|---|---|---|---|
| C[C@H](CO)[C@@H](OC(=O)NCCSc1ncccn1)[C@@H]1OC(C(=O)O)=C[C@H](N=C(N)N)[C@H]1NC(=O)O | MDCK | Victoria | 0.027 µg/mL |
| Nc1nc(Cl)cc(NCC2(O)CCC2)n1 | MDCK | B/GIFU/2/73 | >130 µM |